Biological target: recombinant HIV-1 RT, ref RT (HIV type B, clone BH 10) (Human immunodeficiency virus type 1 group M subtype B, UniProt P03366)
Settings: read-out: Inhibition of binding to primer (BIC50), immobilised primer, binding 90 min at 33° C.
Method: (iii) Protocol for RT binding inhibition (BIC) assay: The study was performed in a modified DNA polymerase assay. The inhibitors were serially diluted in five steps, enzyme dilution was added and the enzyme/inhibitor mixtures were incubated for 30 minutes at 33° C. Aliquots of the enzyme/inhibitor mixture were transferred to each well of a microtiter plate containing either immobilised primer, or primer/template. The enzyme was allowed to bind to the immobilised polymer for 90 min at 33° C. The amount of RT used was standardised to an activity corresponding to 40-60 pg (3.3-5.0×10^−16 mol) reference HIV-1 RT per well. The plates were then washed to remove unbound enzyme whereupon the amount of bound enzyme was determined by addition of the appropriate reaction solution for polymerisation (i e a reaction solution devoid of primer for studies of primer binding and a reaction solution devoid of both primer and template for studies of binding to primed template). The polymerase reaction was allowed to proceed for 3 hours at 33° C., whereupon the reaction was terminated by a wash of the plate.
The capacity of the indicated substances to inhibit the binding to primer or to primed DNA template of a panel of recombinant HIV 1 subtype B RTs was studied according to “Protocol for RT binding inhibition (BIC) assay” (protocol (iii) above).

Q: For “substance 199: 35-mer RNA molecule having the sequence set out in SEQ ID NO:5; similar to SEQ ID NO:4 with some naturally occurring nucleotide derivatives (GCUCAGNCGGNAGAGCANCAGACUUUUAANCUGAN; RNA, backbone, methylation of C and the base at N not given here; naturally occurring modified nucleosides at n positions)”, which IC50 is on record?
A: Its IC50 is 2 nM.

Source: patent publication US20040053872A1, “New sequences” (priority 2000, published 2004)
